Measurements published in patent publication EP3529371B1.

Assays:
Assay in all cases: cell-based or functional assay
[1] = biological target: rat VAMP-2 aa 1-97 fused to an N-terminal thrombin cleavable His6tag (rat) (UniProt P63045)
[2] = biological target: H6tHAtev1V(2-94)L (Photinus pyralis) (UniProt P63026)
[3] = biological target: Recombinant rat SNAP-25 aa 1-206 fused to a C-terminal His6tag (rat) (UniProt P60881)
[4] = biological target: H6tHAtev1S(146-206)L (Photinus pyralis)

**Q.** Which EC50 of substrate cleavage, endopeptidase assay, PBS pH 7.4, 1 h 37°C [1] does the source give for “LC/D 1-436 fused to a C-terminal 6xHN-tag (enzyme)” here?
**A.** Its EC50 of substrate cleavage, endopeptidase assay, PBS pH 7.4, 1 h 37°C is 1 nM.

**Q.** What about the EC50 of substrate cleavage, endopeptidase assay, PBS pH 7.4, 1 h 37°C [2] of the same substance?
**A.** The EC50 of substrate cleavage, endopeptidase assay, PBS pH 7.4, 1 h 37°C was 1.3 nM.

**Q.** Which EC50 of substrate cleavage, endopeptidase assay, PBS pH 7.4, 1 h 37°C, SDS-PAGE [3] does the source give for “LC/C 1-436 fused to a C-terminal 6xHN-tag (enzyme)” here?
**A.** Its EC50 of substrate cleavage, endopeptidase assay, PBS pH 7.4, 1 h 37°C, SDS-PAGE is 2.1 µM.

**Q.** Which results are given for “LC/G 1-435 fused to a C-terminal 6xHN-tag (enzyme)”?
**A.** EC50 of substrate cleavage, endopeptidase assay, PBS pH 7.4, 1 h 37°C [1]: > 10 µM; EC50 of substrate cleavage, endopeptidase assay, PBS pH 7.4, 1 h 37°C [2]: > 10 µM

**Q.** “LC/A1 1-429 fused to a C-terminal 6xHN-tag (enzyme)” was tested. Which EC50 of substrate cleavage, endopeptidase assay, PBS pH 7.4, 1 h 37°C, SDS-PAGE [3] did it give?
**A.** Its EC50 of substrate cleavage, endopeptidase assay, PBS pH 7.4, 1 h 37°C, SDS-PAGE is 1.67 nM.

**Q.** With “LC/C 1-436 fused to a C-terminal 6xHN-tag” as the substance, how does the EC50 of substrate cleavage, endopeptidase assay, PBS pH 7.4, 1 h 37°C, SDS-PAGE [4] read?
**A.** The EC50 of substrate cleavage, endopeptidase assay, PBS pH 7.4, 1 h 37°C, SDS-PAGE was > 3 µM.

**Q.** Which EC50 of substrate cleavage, endopeptidase assay, PBS pH 7.4, 1 h 37°C, SDS-PAGE [4] does the source give for “LC/E1 1-411 fused to a C-terminal 6xHN-tag” here?
**A.** The EC50 of substrate cleavage, endopeptidase assay, PBS pH 7.4, 1 h 37°C, SDS-PAGE was 0.17 nM.

**Q.** How did the EC50 of substrate cleavage, endopeptidase assay, PBS pH 7.4, 1 h 37°C [1] turn out when “LC/T 1-438 fused to a C-terminal 6xHN-tag (enzyme)” was run?
**A.** Its EC50 of substrate cleavage, endopeptidase assay, PBS pH 7.4, 1 h 37°C is 10 nM.

**Q.** With “LC/F1 1-428 fused to a C-terminal 6xHN-tag (enzyme)” as the substance, how does the EC50 of substrate cleavage, endopeptidase assay, PBS pH 7.4, 1 h 37°C [1] read?
**A.** Its EC50 of substrate cleavage, endopeptidase assay, PBS pH 7.4, 1 h 37°C is 2 nM.

**Q.** “LC/A1 1-429 fused to a C-terminal 6xHN-tag” was tested. Which EC50 of substrate cleavage, endopeptidase assay, PBS pH 7.4, 1 h 37°C, SDS-PAGE [4] did it give?
**A.** Its EC50 of substrate cleavage, endopeptidase assay, PBS pH 7.4, 1 h 37°C, SDS-PAGE is 0.87 nM.

**Q.** “LC/B1 1-436 fused to a C-terminal 6xHN-tag (enzyme)” was tested. Which EC50 of substrate cleavage, endopeptidase assay, PBS pH 7.4, 1 h 37°C [1] did it give?
**A.** Its EC50 of substrate cleavage, endopeptidase assay, PBS pH 7.4, 1 h 37°C is 60 nM.

**Q.** And the EC50 of substrate cleavage, endopeptidase assay, PBS pH 7.4, 1 h 37°C [2]?
**A.** The EC50 of substrate cleavage, endopeptidase assay, PBS pH 7.4, 1 h 37°C was 160 nM.

**Q.** With “LC/E1 1-411 fused to a C-terminal 6xHN-tag (enzyme)” as the substance, how does the EC50 of substrate cleavage, endopeptidase assay, PBS pH 7.4, 1 h 37°C, SDS-PAGE [3] read?
**A.** Its EC50 of substrate cleavage, endopeptidase assay, PBS pH 7.4, 1 h 37°C, SDS-PAGE is 0.4 nM.
